The text below walks through data of patent US20120121591A1, “SELECTIVE AND POTENT PEPTIDE INHIBITORS OF Kv1.3” (priority 2009, published 2012).

Test in all cases: cell-based or functional assay
Assay [1] addresses human Kv1.3 (human), P22001.
Assay [2] deals with T1, human Kv1.1 (human), Q09470.
T1 chain: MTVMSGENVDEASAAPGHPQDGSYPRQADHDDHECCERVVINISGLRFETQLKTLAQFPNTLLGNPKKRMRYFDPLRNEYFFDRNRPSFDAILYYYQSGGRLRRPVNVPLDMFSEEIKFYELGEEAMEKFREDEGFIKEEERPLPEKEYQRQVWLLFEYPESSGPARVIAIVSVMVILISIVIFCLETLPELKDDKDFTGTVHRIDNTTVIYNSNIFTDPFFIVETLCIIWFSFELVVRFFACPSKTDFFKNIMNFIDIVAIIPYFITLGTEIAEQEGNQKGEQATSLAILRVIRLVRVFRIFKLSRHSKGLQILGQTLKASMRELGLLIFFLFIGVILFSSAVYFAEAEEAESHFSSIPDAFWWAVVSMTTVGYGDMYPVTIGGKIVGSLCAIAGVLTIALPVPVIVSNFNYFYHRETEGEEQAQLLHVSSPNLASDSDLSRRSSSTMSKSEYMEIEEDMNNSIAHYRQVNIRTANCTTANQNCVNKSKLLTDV

For assay [3], the target named is hKvLQT1/hminK (IKs) (human), P51787.

As for RSCEDTIPKERCTAFKCRHSMKYRLSFCKRTCGTC (modifications not checked) [[Glu4,10; Lys16,29; Arg18,30]ShK-amide], in assay [1], the Kv1.3 (IWQ) IC50 amounted to 0.064 nM.

Take RSCEDTIPEERCTAFKCRHSMKYRLSFCKRTCGTC (modifications not checked) [[Glu4,9,10; Lys16,29; Arg18, 30]ShK-amide]: in assay [1], the Kv1.3 (IWQ) IC50 is 0.059 nM and the WB (IL-2) IC50 worked out at 0.204 nM.

Molecule GVIINVKCKISRQCLEPCKKAGMRFGKCMNGKCACTPK (modifications not checked) [[Ala34]Osk-1] registered a Kv1.1 (IWQ) IC50 in assay [2] of 1.07 nM. In assay [1], the Kv1.3 (IWQ) IC50 turned out to be 0.1 nM, the WB (IFNg) IC50 was 0.074 nM and the WB (IL-2) IC50 turned out to be 0.052 nM.

On to RSCIDTIPKSRCTAFKCKHSQKYRLSFCRKTCGTCA (modifications not checked) [[Lys16,Gln21]ShK-Ala], for which, in assay [2], the Kv1.1 (IWQ) IC50 was found to be 4.01 nM.

In assay [1], RSCEDTIPKSRCTAFKCKHSQKYRLSFCRKTCGTCA (modifications not checked) [20kDaPEG-[Glu4,Lys16,Gln21]ShK-Ala] registered a Kv1.3 (IWQ) IC50 of 7.78 nM, a WB (IFNg) IC50 of 14 nM and a WB (IL-2) IC50 of 2.78 nM.

RSCIDTIPKSRCTAFKCKHSMKYRLSYCKKTCGTC (modifications not checked) [[Lys16,29; Tyr27]ShK-amide] had a Kv1.3 (IWQ) IC50 in assay [1] of 0.042 nM.

In the case of RSCEDTIPKSRCTAFKCRHSMKYRLSFCKRTCGTC (modifications not checked) [[Glu4; Lys16, 29; Arg18, 30]ShK-amide], the WB (IL-2) IC50 in assay [1] worked out at 0.203 nM.

As for RSCIDTIPKSRCTAFKCKHSMKYRLSWCKKTCGTC (modifications not checked) [[Lys16,29; Trp27]ShK-amide], the WB (IFNg) IC50 in assay [1] is 0.606 nM.

Consider RSCIDTIPKSRCTAFKCKHSSKYRLSFCRKTCGTC (modifications not checked) [[Lys16, Ser21]ShK-amide], for which the Kv1.3 (IWQ) IC50 in assay [1] turned out to be 0.068 nM.

RSCIDTIPKSRCTAFKCKHSMKYRLSFCRKTCGTC (modifications not checked) [20 kDa PEG-[Lys16]ShK] displayed a KvLQT1/minK (IKs) IC50 in assay [3] of over 30 µM.

As for RSCIDTIPKSRCTAFKCEHSMKYRLSFCRKTCGTC (modifications not checked) [[Lys16, Glu18]ShK-amide], in assay [1], the Kv1.3 (IWQ) IC50 worked out at 0.065 nM.

In the case of RSCIDTIPKSRCTAFKCKHSMKYRLYFCKKTCGTC (modifications not checked) [[Lys16,29; Tyr26]ShK-amide], in assay [1], the Kv1.3 (IWQ) IC50 was found to be 0.084 nM and the WB (IL-2) IC50 amounted to 1.04 nM.

In assay [1], RSCEDTIPKSRCTAFKCKHSQKYRLSFCRKTCGTC (modifications not checked) [[Glu4, Lys16, Gln21]ShK-amide] showed a WB (IL-2) IC50 of 0.23 nM.

In assay [1], RSCEDTIPKSRCTAFKCKHSSKYRLSFCRKTCGTC (modifications not checked) [[Glu4, Lys16, Ser21]ShK-amide] showed a Kv1.3 (IWQ) IC50 of 0.098 nM and a WB (IL-2) IC50 of 0.86 nM.

With RSCIDTIPKSRCTAFKCKHSQKYRLSFCRKTCGTC (modifications not checked) [[Lys16, Gln21]ShK-amide], the WB (IL-2) IC50 in assay [1] worked out at 0.42 nM.

Consider RSCIDTIPKSRCTAFKCKHSHKYRLSFCRKTCGTC (modifications not checked) [[Lys16, His21]ShK-amide], for which the WB (IL-2) IC50 in assay [1] is 5.5 nM.

In assay [2], RSCIDTIPKSRCTAFKCKHSQKYRLSFCRKTCGTC (modifications not checked) [20kDaPEG-[Lys16,Gln21]ShK-amide] returned a Kv1.1 (IWQ) IC50 of 537 nM. Further, the WB (IFNg) IC50 in assay [1] worked out at 0.942 nM.

Take RSCIDTIPKSRCTAFKCKHSAKYRLSFCRKTCGTC (modifications not checked) [20kDaPEG-[Lys16,Ala21]ShK]: in assay [1], the Kv1.3 (IWQ) IC50 was determined as 4.57 nM, the WB (IFNg) IC50 stood at 7.92 nM and the WB (IL-2) IC50 was 4.8 nM.

In assay [1], RSCIDTIPKSRCTAFKCKHSVKYRLSFCRKTCGTC (modifications not checked) [[Lys16, Val21]ShK-amide] registered a WB (IL-2) IC50 of 4.8 nM.

Molecule RSCIDTIPKSRCTAAKCKHSMKYRLSFCRKTCGTC (modifications not checked) [[Ala15,Lys16]ShK-amide] returned a Kv1.3 (IWQ) IC50 in assay [1] of 0.091 nM.

In turn, RSCIDTIPKSRCTAFKCKHSFKYRLSFCRKTCGTC (modifications not checked) [[Lys16, Phe21]ShK-amide] showed a WB (IFNg) IC50 in assay [1] of 2.04 nM.
